Compound potency records, mixed from different reports. Data source: NIAID ChemDB in PubChem.

All rows: tests in culture; agent: Mycobacterium tuberculosis

An empty or dashed field is not shown. ECn: concentration that inhibits the pathogen or its effect by n%. Inhibition is in % at the dose shown (toxicity tests: loss of growth or viability). MIC50, MIC90 and the like: level of inhibition, or share of isolates inhibited. MIC bound comes from a single tested concentration. Two numbers with a dash give a range or band. Rows are shuffled and stem from different studies.

SMILES	read by	strain or isolate	setting	cells	endpoint	tested at	result
Cc1ncnc2c1ncn2/N=C/c1ccc([N+](=O)[O-])cc1	BACTEC	H37Rv	-	-	MIC bound	-	>12.5 µg/mL
CCC(C)CO[C@@H]1CC(C)(C)C[C@H]2C3=CC[C@@H]4[C@]56CCC(O)(OC5)C(C)(C)[C@@H]6CC[C@@]4(C)[C@]3(C)CC[C@@]12C(=O)O	-	H37Rv	-	-	MIC	-	73 µg/mL
Nc1ccc2c(Cl)cc(N3CCCCC3)nc2n1	BACTEC	H37Rv	-	-	inhibition	6.25 µg/mL	38%
NNC(=O)c1ccc(N)cc1O	BACTEC	H37Rv	-	-	MIC bound	-	≤12.5 µg/mL
O=C(N/N=C/c1ccc(O)cc1)c1cc(-c2ccc(Cl)cc2)n[nH]1	broth dilution	H37Rv	-	-	MIC	-	0.5 µg/mL
O=C(c1ccncc1)N(/N=C/c1ccco1)C(=O)c1cnccn1	-	9 isolates (sensitive)	-	-	MIC	-	4–8 µg/mL
O=C(N[C@@H](CO)C(=O)N/N=C/c1ccccc1)OCc1ccccc1	resazurin	H37Rv	-	-	MIC	-	>100 µg/mL
CCOC(=O)N1CCN(c2ccc3cc(-c4ccccc4)c(=O)[nH]c3n2)CC1	BACTEC	H37Rv	-	-	EC50	-	>6.25 µg/mL
COc1ccc(/C=N/NC(=O)[C@H](CO)NC(=O)OCc2ccccc2)cc1OC	resazurin	H37Rv	-	-	MIC	-	>100 µg/mL
Cc1ccc2c(N3CCOCC3)c(C)c(N3CCCCC3)nc2n1	BACTEC	H37Rv	-	-	inhibition	6.25 µg/mL	11%
COc1ccc2c(Cc3ccc(Cl)cc3)c3[n+](cc2c1OC)CCc1cc2c(cc1-3)OCO2	broth dilution / turbidity	H37Rv	-	-	MIC	-	4 µg/mL
O=Cc1ccc([N+](=O)ONNC(=O)c2cccnc2)cc1	resazurin	H37Rv	-	-	inhibition	6.25 µg/mL	51%
CSc1nc2ccc(Br)cc2cc1C(c1ccccc1)C(O)(CCN(C)C)c1cccc2ccccc12	-	H37Rv	-	-	MIC90	-	45.4 µg/mL
O=C(NNC(=S)NC1CCCCC1)c1cc(-c2cc(F)cc(F)c2)ccc1O	BACTEC	H37Rv	-	-	inhibition	6.25 µg/mL	<90%
COc1ccc2c(CC=C(C)C)c3[n+](cc2c1OC)CCc1cc2c(cc1-3)OCO2	broth dilution / turbidity	H37Rv	-	-	MIC	-	4 µg/mL
COC1C[C@H](C)[C@@H](OC)C2=CC(=O)C=C(NC(=O)/C(C)=C/C=C\[C@H](C)C(OC(N)=O)/C(C)=C/[C@@H](C)[C@@H]1OC)C2=O	-	EMB-R	-	-	MIC	-	12.5 µg/mL
CC(C)(C)n1cc(C(=O)O)c(=O)c2cc(F)c(N3CCC(N)C3)nc21	-	H37Rv	-	-	MIC	-	12.5 µg/mL
CC(=O)c1ccc([N+](=O)ONNC(=O)c2cc(/C=C\c3ccco3)on2)cc1	resazurin	H37Rv	-	-	inhibition	6.25 µg/mL	66%
O=C(NN1C(=O)[C@H](Cl)[C@H]1c1cccc([N+](=O)[O-])c1)c1cc(-c2ccc(Cl)cc2)n[nH]1	broth dilution	H37Rv	-	-	MIC	-	1.9 µg/mL
c1cc2c(N3CCCCC3)cc(N3CCOCC3)nc2nc1N1CCCCC1	BACTEC	H37Rv	-	-	EC50	-	>6.25 µg/mL
O=C(N[C@@H](CO)C(=O)N/N=C/c1ccc([N+](=O)[O-])cc1)OCc1ccccc1	resazurin	H37Rv	-	-	MIC	-	>100 µg/mL
O=c1c2ccccc2oc2cc3c(c(O)c12)CCCC3	BACTEC	H37Rv	-	-	inhibition	12.5 µg/mL	0%
O=C(/C=C/c1ccccc1)NNC(=O)c1cccnc1	resazurin	H37Rv	-	-	inhibition	6.25 µg/mL	54%
CN(C)c1ccc(/C=C/c2cc(N(CCO)CCO)c3ccccc3n2)cc1	resazurin	H37Rv	-	-	MIC bound	-	>6.25 µg/mL
COC1=C(OC)C(=O)C([C@H]2COc3c(cc(OC)c(OC)c3OC)C2)=CC1=O	-	H37Ra	-	-	MIC	-	12.5 µg/mL
CC(=O)Nc1ccc(/C=N/NC(N)=S)cc1	-	14 strains	-	-	MIC50	-	0.1 µg/mL
Brc1ccc2[nH]c3nc4ccccc4nc3c2c1	resazurin	H37Rv	-	-	inhibition	6.25 µg/mL	44%
COc1nc2ccc(Br)cc2cc1C(c1ccccc1)C(O)(CCCn1cccc1)c1ccc2ccccc2c1	-	H37Rv	-	-	MIC90	-	59.56 µg/mL
COc1ccc(/C=N/N(C(=O)c2ccncc2)C(=O)c2cnccn2)cc1	-	H37Rv	-	-	MIC	-	1 µg/mL
COc1ccc2cc3[n+](cc2c1O)CCc1cc2c(cc1-3)OCO2	broth dilution / turbidity	H37Rv	-	-	MIC	-	>16 µg/mL
C#CC#CC(=O)c1ccccc1C(=O)O	-	H37Ra	-	-	MIC	-	45 µg/mL
C=CCN1C(=O)CS/C1=N/NC(=O)c1cc(-c2cc(F)cc(F)c2)ccc1O	BACTEC	H37Rv	-	-	inhibition	6.25 µg/mL	<90%
COc1cc(/C=N/N(C(=O)c2ccncc2)C(=O)c2cnccn2)ccc1O	-	H37Rv	-	-	MIC	-	4 µg/mL
COC1(c2nc3ccc(F)cc3s2)C=CC(=NS(=O)(=O)c2ccc(C)cc2)C=C1	-	H37Rv	-	-	inhibition	6.25 µg/mL	78%
CN1C(=O)CS/C1=N/NC(=O)c1cc(-c2cc(F)cc(F)c2)ccc1O	BACTEC	H37Rv	-	-	inhibition	6.25 µg/mL	<90%
CC1=N/C(=C\c2ccc([N+](=O)[O-])s2)C(=O)O1	BACTEC	H37Rv	-	-	MIC bound	-	>12.5 µg/mL
C[C@@H]1CN(c2cc3c(cc2F)c(=O)c(C(=O)O)cn3C(C)(C)C)C[C@H](C)N1	-	H37Rv	-	-	MIC	-	0.39 µg/mL
N=c1c2ccccc2nc2oc3ccccc3n12	resazurin	H37Rv	-	-	MIC bound	-	>6.25 µg/mL
O=C(O)c1ccc(O)c2ncccc12	-	M 607	-	-	MIC50	-	10 µg/mL
COC(=O)C1=C(C)NC(C)=C(C(=O)OC)C1c1cn(-c2ccccc2)nc1-c1ccccc1	resazurin	H37Rv	-	-	inhibition	6.25 µg/mL	12%
C=C1C(=O)O[C@H]2/C=C(/C)[C@H](OC(C)=O)C[C@@H](O)/C(C)=C\[C@H](OC(=O)[C@@]3(C)O[C@H]3C)[C@H]12	BACTEC	H37Rv	-	-	MIC bound	-	>12.8 µg/mL
COc1ccc(NC(=S)NNC(=O)c2cc(-c3cc(F)cc(F)c3)ccc2O)cc1	BACTEC	H37Rv	-	-	inhibition	6.25 µg/mL	<90%
CC(C)C(N)C(=O)NC(CO)C(=O)O	BACTEC	H37Rv	-	-	MIC bound	-	>12.8 µg/mL
CC(C(=O)O)c1ccc(O)c2ncccc12	-	H37Rv	-	-	MIC50	-	5–10 µg/mL
O=C1N=NC(=O)C2NC=NC12	BACTEC	H37Rv	-	-	MIC bound	-	>12.5 µg/mL
Cc1ccc2c(Cl)c(C)c(N3CCOCC3)nc2n1	BACTEC	H37Rv	-	-	inhibition	6.25 µg/mL	0%
COc1nc2ccc(Br)cc2cc1C(c1ccccc1)C(O)(CCCN1CCOCC1)c1cccc2ccccc12	-	H37Rv	-	-	MIC90	-	61.16 µg/mL
NNC(=O)c1ccncc1	-	Isolate HN1984 (katG S315N mutation)	-	-	MIC	-	>256 µg/mL
N#Cc1cccc(/C=N/NC(=O)C2COC(=O)N2)c1	resazurin	H37Rv	-	-	MIC	-	>100 µg/mL
Cc1cc(=O)[nH]c2ccccc12	-	M 607	-	-	MIC50	-	>25 µg/mL
O=C(NNC(=O)c1ccc(F)cc1)c1ccc(F)cc1	resazurin	H37Rv	-	-	inhibition	6.25 µg/mL	23%
COc1ccc(N2C(=O)CS/C2=N/NC(=O)c2cc(-c3cc(F)cc(F)c3)ccc2O)cc1	BACTEC	H37Rv	-	-	inhibition	6.25 µg/mL	<90%
CC[C@@H](CO)NCCN[C@@H](CC)CO	-	29 isolates drug-resistant	-	-	MIC	-	5 µg/mL
O=C(O)c1cc(O)c2ncccc2c1	-	H37Rv	-	-	MIC50	-	5–10 µg/mL
O=C(NN1C(=O)CSC1c1ccccc1)c1cc(-c2cc(F)cc(F)c2)ccc1O	BACTEC	H37Rv	-	-	inhibition	6.25 µg/mL	<90%
O=C(c1ccncc1)N(/N=C/c1ccc(Cl)cc1Cl)C(=O)c1cnccn1	-	H37Rv	-	-	MIC	-	>16 µg/mL
CCc1nc2ccc(Cl)cc2c2nc3ccccc3n12	resazurin	H37Rv	-	-	MIC99	-	6.25 µg/mL
COc1cccc2c1[n+]([O-])c1cccc(O)c1[n+]2[O-]	-	H37Rv	-	VERO	MIC	-	0.8 µg/mL
CCOC(=O)C1=C(C)NC(C)=C(C(=O)OCC)C1c1cn(-c2ccccc2)nc1-c1ccccc1	resazurin	H37Rv	-	VERO	inhibition	6.25 µg/mL	95%
O=C(NN1C(=O)CSC1c1ccc(O)cc1)c1cc(-c2ccc(Cl)cc2)n[nH]1	broth dilution	H37Rv	-	-	MIC	-	0.6 µg/mL
N[C@H]1CCN(c2nc3c(cc2F)c(=O)c(C(=O)O)cn3C2CC2)C1	-	H37Rv	inside macrophages	Macrophages	EC50	-	<0.5 µg/mL
COc1ccc(C2N=C(N)Nc3c2c(C)nn3-c2ccc3c(c2)Nc2ccccc2S3)cc1	resazurin	H37Rv	-	-	inhibition	42 µg/mL	78%
CCC1CN(c2c(F)cc3c(=O)c(C(=O)O)cn(C4CC4)c3c2OC)CCN1	-	H37Rv	-	-	MIC	-	0.1 µg/mL
COc1nc2ccc(Br)cc2cc1C(c1ccccc1)C(O)(CCN1CCCC1)c1ccc2cc(Br)ccc2c1	-	H37Rv	-	-	MIC90	-	52.46 µg/mL
COc1ccccc1/C=N/NC(=O)[C@H](CO)NC(=O)OC(C)(C)C	resazurin	H37Rv	-	-	MIC	-	>100 µg/mL
COc1ccc2c(c1OC)C(CC(C)=O)N1CCc3cc4c(cc3C1=C2)OCO4	broth dilution / turbidity	H37Rv	-	-	MIC	-	16 µg/mL
CCOC(=O)C1=C(C)NC(C)=C(C(=O)OCC)C1c1cn(-c2ccccc2)nc1-c1ccc(F)cc1	resazurin	H37Rv	-	VERO	inhibition	6.25 µg/mL	100%
NC1CCN(c2c(F)cc3c(=O)c(C(=O)O)cn(C4CC4)c3c2Cl)C1	-	21 strains	-	-	MIC90	-	1 µg/mL
C1CC[N+]2(CC1)CCCCC2.NC(=S)[S-]	-	EMB-R	-	-	MIC	-	1.6 µg/mL
CCN1CCN(c2c(F)cc3c(=O)c(C(=O)O)cn(C4CC4)c3c2OC)CC1	-	H37Rv	-	-	MIC	-	0.39 µg/mL
Cc1cc(NCCN(C(C)C)C(C)C)nc(Nc2nc3ccc(Cl)cc3[nH]2)n1	BACTEC	H37Rv	-	-	inhibition	6.25 µg/mL	69%
CN(C)CC(=O)Nc1cc(N(C)C)c2c(c1O)C(O)=C1C(=O)[C@]3(O)C(O)=C(C(N)=O)C(=O)[C@@H](N(C)C)[C@@H]3C[C@@H]1C2	-	2 strains	-	-	MIC	-	>32 µg/mL
Cc1c2ccnc(-c3ccccc3)c2cc2c1[nH]c1ccccc12	resazurin	H37Rv	-	-	inhibition	6.25 µg/mL	100%
COC(=O)C1=C(C)NC(C)=C(C(=O)OC)C1c1cn(-c2ccccc2)nc1-c1ccc(O)cc1	resazurin	H37Rv	-	-	inhibition	6.25 µg/mL	38%
O=C(c1ccncc1)N(NCc1cccc(Cl)c1)C(=O)c1cnccn1	-	9 isolates (sensitive)	-	-	MIC	-	0.25 µg/mL
CC(CCC(=O)NN)C1CCC2C3CCC4CC(O)CCC4(C)C3CCC12C	BACTEC	H37Rv	-	-	inhibition	12.5 µg/mL	0%
Cc1ccc2cccnc2c1O	-	M 607	-	-	MIC50	-	1–5 µg/mL
CCOC(=O)C1=C(C)NC(C)=C(C(=O)OCC)C1c1cn(-c2ccccc2)nc1-c1ccc(C)cc1	resazurin	H37Rv	-	-	inhibition	6.25 µg/mL	84%
O=C1CC[C@@]2(O)[C@H]3Cc4ccc(O)c5c4[C@@]2(CCN3Cc2ccoc2)[C@H]1O5	BACTEC	H37Rv	-	-	MIC bound	-	>12.5 µg/mL
CCOC(=O)C1=C(C)NC(C)=C(C(=O)OCC)C1c1cn(-c2ccccc2)nc1-c1ccc(O)cc1	resazurin	H37Rv	-	VERO	inhibition	6.25 µg/mL	97%
CCCCCCOCC(O)CNCCNCC(O)COCCCCCC	-	H37Rv	-	-	inhibition	6.25 µg/mL	29%
CCC1Cn2cc([N+](=O)[O-])nc2O1	-	1 isolates streptomycin-resistant	-	-	MIC	-	0.08 µg/mL
COc1ccc(NC(=O)CC(=O)N2N=C(N3c4ccccc4Sc4ccccc43)CC2c2ccccc2)cc1	BACTEC	H37Rv	-	-	inhibition	12.5 µg/mL	2%
COC(=O)C1=C(C)NC(C)=C(C(=O)OC)C1c1cn(-c2ccccc2)nc1-c1ccc([N+](=O)[O-])cc1	resazurin	H37Rv	-	-	inhibition	6.25 µg/mL	100%

Again, the opening 7 rows:

{"SMILES": "Cc1ncnc2c1ncn2/N=C/c1ccc([N+](=O)[O-])cc1", "read by": "BACTEC", "strain or isolate": "H37Rv", "endpoint": "MIC bound", "result": ">12.5 µg/mL"}
{"SMILES": "CCC(C)CO[C@@H]1CC(C)(C)C[C@H]2C3=CC[C@@H]4[C@]56CCC(O)(OC5)C(C)(C)[C@@H]6CC[C@@]4(C)[C@]3(C)CC[C@@]12C(=O)O", "strain or isolate": "H37Rv", "endpoint": "MIC", "result": "73 µg/mL"}
{"SMILES": "Nc1ccc2c(Cl)cc(N3CCCCC3)nc2n1", "read by": "BACTEC", "strain or isolate": "H37Rv", "endpoint": "inhibition", "tested at": "6.25 µg/mL", "result": "38%"}
{"SMILES": "NNC(=O)c1ccc(N)cc1O", "read by": "BACTEC", "strain or isolate": "H37Rv", "endpoint": "MIC bound", "result": "≤12.5 µg/mL"}
{"SMILES": "O=C(N/N=C/c1ccc(O)cc1)c1cc(-c2ccc(Cl)cc2)n[nH]1", "read by": "broth dilution", "strain or isolate": "H37Rv", "endpoint": "MIC", "result": "0.5 µg/mL"}
{"SMILES": "O=C(c1ccncc1)N(/N=C/c1ccco1)C(=O)c1cnccn1", "strain or isolate": "9 isolates (sensitive)", "endpoint": "MIC", "result": "4–8 µg/mL"}
{"SMILES": "O=C(N[C@@H](CO)C(=O)N/N=C/c1ccccc1)OCc1ccccc1", "read by": "resazurin", "strain or isolate": "H37Rv", "endpoint": "MIC", "result": ">100 µg/mL"}